Anti-infective test results gathered from many reports (values: NIAID ChemDB through PubChem).

Shared fields: tests on isolated targets; organism: HIV-1; target: Reverse transcriptase

Blank or dashed fields: not listed here.

compound | method | strain or isolate | mutations | endpoint | result
COc1cc(O)c2c(=O)cc(-c3cc(O)c(OC)c(OC)c3)oc2c1 | - | - | - | IC50 | >5.9 µg/mL
Fc1cccc(Cl)c1CCNC(=S)Nc1nccs1 | nucleotide incorporation | - | - | IC50 | <1 µg/mL
O=C1Cc2ccc(-c3ccco3)cc2C(=O)N1O | RT activity / nucleotide incorporation / absorbance | - | - | IC50 | 2.6 µM
Cn1c(Nc2cccc(C3CCOC3)c2)cc(=O)n(O)c1=O | nucleotide incorporation / radiometric | - | - | IC50 | >25 µM
C=C1C(=O)O[C@@H]2C[C@@H]3[C@]4(CC[C@]5(C)[C@@H]([C@H](C)CC/C=C(\C)C=O)CC[C@@]35C)C[C@]4(CCC(=O)OC)[C@H]12 | - | - | - | IC50 | 49.7 µg/mL
CCOc1ccccc1CCNC(=S)Nc1nccs1 | nucleotide incorporation | - | - | IC50 | >10 µg/mL
O=C1c2ccc(O)c(O)c2C(=O)c2c(O)ccc(O)c21 | RT activity | - | - | IC50 | 4.7 µg/mL
COC(=O)C(OCC1OC(n2cc(C)c(=O)[nH]c2=O)CC1N=[N+]=[N-])P(=O)(O)OP(=O)(O)O | nucleotide incorporation / radiometric | - | - | IC50 | 141 µg/mL
O=C(NCCc1ccccc1)Nc1nc(C(F)(F)F)cs1 | nucleotide incorporation | - | - | IC50 | <0.1 µg/mL
O=C(O)CN1C(=O)CSC1c1ccccc1Cl | RT activity / absorbance | - | - | IC50 | 28.86 µM
CC1C(Sc2nnnn2-c2cccc3ccccc23)C1c1ccccc1Cl | fluorescence | - | RT-K103N Y181C | IC50 | ≥0.1 µM
Cc1cn(C2CC(N=[N+]=[N-])C(COC(C(=O)O)P(=O)(O)O)O2)c(=O)[nH]c1=O | nucleotide incorporation / radiometric | - | - | IC50 | 89 µg/mL
Cc1cc(C)c(-n2nnnc2SCC(=O)c2ccccc2[N+](=O)[O-])c(C)c1 | fluorescence | - | - | IC50 | ≥0.1 µM
Nc1ccc2c(c1)CN(c1nn3c(-c4cccs4)nnc3c3ccccc13)CC2 | RT activity / fluorescence | 98US_MSC5016 | - | IC50 | 4.29 µM
O=C(NCCc1ccccc1)Nc1nc2ccc(F)cc2s1 | nucleotide incorporation | - | - | IC50 | >10 µg/mL
Cc1cccc(-c2ccccc2)c1Nc1nc(NCc2ccc3c(ccn3S(C)(=O)=O)c2)nc(=O)[nH]1 | RT activity | - | - | IC50 | 100 µM
CCC(CC12CC3CC(CC(C3)C1)C2)Nc1nc2c([nH]1)c(=O)n(C)c(=O)n2C | RT activity / radiometric | - | - | Ki | >200 µM
COc1cc(-c2cc(=O)c3c(O)c(OC)c(O)cc3o2)cc(O)c1OC | - | - | - | IC50 | >25.5 µg/mL
CCN(Cc1ccc2occc2c1)c1nc(Nc2c(F)cccc2-c2ccccc2)[nH]c(=O)n1 | RT activity | - | - | IC50 | 100 µM
O=C(COc1cccnc1-c1cccc2ccccc12)Nc1cccnc1Cl | RT activity / ELISA / absorbance | - | - | IC50 | 87.3 µM
N#Cc1csc(NC(=O)NCCc2ccccc2)n1 | nucleotide incorporation | - | - | IC50 | <0.1 µg/mL
CC(C)[C@H](NC(=O)c1ccccc1)C(=O)N/N=C/c1c(F)cccc1F | RT activity | - | - | IC50 | 162.2 µM
CCCCCCCCCCCCCCc1sc(NC(=O)NCCc2ccccc2)nc1-c1ccc(Cl)cc1 | nucleotide incorporation | - | - | IC50 | >10 µg/mL
Cn1c(Oc2ccccc2-c2ccccc2)cc(=O)n(O)c1=O | nucleotide incorporation / radiometric | - | - | IC50 | >25 µM
COc1cc2c(cc1OC)CN(c1nn3c(C)nnc3c3ccccc13)CC2 | RT activity / fluorescence | IIIB | - | IC50 | 0.4 µM
Cc1ccc(-c2ccccc2CCC(=O)Nc2cccs2)c(Cl)c1 | fluorescence | - | - | IC50 | ≥0.1 µM
Cc1cn(C2CC(N=[N+]=[N-])C(COC(C(=O)O)P(=O)(O)OP(=O)(O)OP(=O)(O)O)O2)c(=O)[nH]c1=O | nucleotide incorporation / radiometric | - | - | IC50 | 46 µg/mL
COC(=O)C(=O)c1csc(NC(=O)NCCc2ccccc2)n1 | nucleotide incorporation | - | - | IC50 | >10 µg/mL
CCc1c(C)nc(N2C(=O)CSC2CO)nc1C | RT activity / absorbance | - | - | IC50 | 3.06 µM
CS(=O)(=O)Nc1ccc2c(c1)CN(c1nn3c(C4CC4)nnc3c3ccccc13)CC2 | RT activity / fluorescence | IIIB | - | IC90 | 1.77 µM
Cc1cn([C@H]2CC[C@@H](COP(=O)(O)OP(=O)(O)OP(=O)(O)O)O2)c(=O)[nH]c1=O | RT activity | - | - | IC50 | 0.04 µg/mL
Cc1ccc(S(=O)(=O)n2c(=O)[nH]c3ccc(Cl)cc32)cc1C | nucleotide incorporation | - | Wild type | IC50 | 0.004 µM
Cn1c(=O)c2[nH]c(NCC(O)C34CC5CC(CC(C5)C3)C4)nc2n(C)c1=O | RT activity / radiometric | - | - | Ki | >200 µM
CCOC(=O)c1c(O)c2cc(Oc3ccc(N(CC)CC)cc3)cnc2n(O)c1=O | luminescence | - | - | IC50 | 0.22 µM
O=C(O)CN1C(=O)CSC1c1c(Cl)cccc1Cl | RT activity / absorbance | - | - | IC50 | >100 µM
CC(C)=CCN1Cc2cccc3[nH]c(=O)n(c23)CC1C | ELISA | - | - | IC50 | 0.16 µM
Nc1ccn([C@@H]2CS[C@H](COP(=O)(O)OP(=O)(O)OP(=O)(O)O)O2)c(=O)n1 | nucleotide incorporation | - | - | Ki | 1 µM
COc1cc2c(cc1N)CN(c1nn3c(C4CC4)nnc3c3ccccc13)CC2 | RT activity / fluorescence | 98US_MSC5016 | - | IC90 | 9.83 µM
CCN(CC)c1ccc(-n2nnnc2SCC(=O)Nc2ccc(S(N)(=O)=O)cc2C)c(Cl)c1 | fluorescence | - | - | IC50 | 0.05–0.1 µM
O=c1nc(NCc2ccc3cc[nH]c3c2)nc(Nc2cccc(Oc3ccccc3)c2)[nH]1 | RT activity | - | - | IC50 | 100 µM
O=C(O)CN(CC(=O)O)Cc1cc2c(c(O)c1O)C(=O)c1ccccc1C2=O | RT activity | - | - | IC50 | 19 µg/mL
Cc1cc(C)nc(N2C(=O)CSC2CO)n1 | RT activity / absorbance | - | - | IC50 | 13.58 µM
O=C(/C=C/c1ccc(O)c2c1[C@H](C(=O)O[C@H](Cc1ccc(O)c(O)c1)C(=O)O)[C@@H](c1ccc(O)c(O)c1)O2)O[C@H](Cc1ccc(O)c(O)c1)C(=O)O | nucleotide incorporation | - | - | IC50 | 68 µM
COC(=O)c1ccc(NC(=O)COc2cccnc2-c2cccc3ccccc23)c(Br)c1 | RT activity / ELISA / absorbance | - | - | IC50 | 43.3 µM
O=C(NCCc1ccccc1)Nc1nc2ccc(Cl)cc2s1 | nucleotide incorporation | - | - | IC50 | >10 µg/mL
Nc1ccn([C@H]2CS[C@@H](COP(=O)(O)OP(=O)(O)OP(=O)(O)O)O2)c(=O)n1 | nucleotide incorporation | - | - | Ki | 0.54 µM
CCOC(=O)CN1C(=O)CSC1c1ccccc1Cl | RT activity / absorbance | - | - | IC50 | 10.01 µM
O=C(NCCc1ccccc1)Nc1cnccn1 | nucleotide incorporation | - | - | IC50 | >10 µg/mL

A second listing of 6 rows from above:

compound	method	strain or isolate	mutations	endpoint	result
Fc1cccc(Cl)c1CCNC(=S)Nc1nccs1	nucleotide incorporation	-	-	IC50	<1 µg/mL
CCOC(=O)CN1C(=O)CSC1c1ccccc1Cl	RT activity / absorbance	-	-	IC50	10.01 µM
CCN(Cc1ccc2occc2c1)c1nc(Nc2c(F)cccc2-c2ccccc2)[nH]c(=O)n1	RT activity	-	-	IC50	100 µM
Cc1ccc(-c2ccccc2CCC(=O)Nc2cccs2)c(Cl)c1	fluorescence	-	-	IC50	≥0.1 µM
CC(C)[C@H](NC(=O)c1ccccc1)C(=O)N/N=C/c1c(F)cccc1F	RT activity	-	-	IC50	162.2 µM
COc1cc2c(cc1N)CN(c1nn3c(C4CC4)nnc3c3ccccc13)CC2	RT activity / fluorescence	98US_MSC5016	-	IC90	9.83 µM

Lines come from different laboratories, so protocols vary. ICn: concentration for n% inhibition. a–b is a range or a potency band.